This data set concerns CEM-T4 human T-lymphocyte cell line. The settings on record: PIC 024.4 30% polymer by weight.

With `O=c1[nH]cnc2c1ncn2[C@H]1CC[C@@H](CO)O1` [ddI, 2′,3′-Dideoxyinosine], the “Cytotoxicity TD50, CEM-T4 (IIIB)” value is >25 µg/mL.
